Measured values from several laboratories, pooled; numbers as filed in NIAID ChemDB.

All rows: growth or infection tests; organism: HIV-1; endpoint: EC50

ECn is the concentration giving n% inhibition of infection, replication or growth. Lines come from different laboratories, so protocols vary.

C1CNCCNCCCN2CCCNCCNCCCN(C1)CC2 ; strain: 168.10 ; cells: SupT1 + Sup-T1 ; method: cytopathic effect / MTT ; value: 6 µg/mL
COc1ccc(S(=O)(=O)N(CC(C)C)C[C@@H](O)[C@H](Cc2ccccc2)NC(=O)O[C@@H]2CO[C@@H]3OCC[C@@H]32)cc1 ; strain: IIIB ; cells: MT-2 + MT-4 ; value: 0.0003 µM
O=C(O)c1c(Br)c(Br)c(Br)c(Br)c1-c1c2ccc(=O)c(O)c-2oc2c(O)c(O)ccc12 ; strain: NL4-3 ; cells: MAGI ; method: β-galactosidase ; value: 12.8 µM
COc1cc(C(F)(F)F)cc(S(=O)(=O)c2cccc(N)c2C#N)c1 ; changes: RT-V108I ; cells: HeLa + HELA CD4+ ; method: β-galactosidase ; value: 0.029 µM
CC(C)(C)NC(=O)[C@@H]1CCCN1C(=O)[C@@H](O)[C@H](Cc1ccccc1)NC(=O)[C@H](CC(N)=O)NC(=O)c1cnc2ccccc2n1 ; strain: IIIB ; cells: MOLT-4/HIV-1(IIIB) + MOLT-4 ; method: p24 ; value: <1 µM
CC(C)[C@H](NC(=O)OCc1cccnc1)C(=O)N[C@@H](Cc1ccccc1)[C@@H](O)[C@H](O)[C@H](Cc1ccccc1)NC(=O)[C@@H](NC(=O)OCc1cccnc1)C(C)C ; strain: D34 ; cells: PBLC ; method: p24 ; value: 0.253 µM
CC(=O)O[C@@H]1CC[C@@]2(C)[C@H](CC[C@@H]3[C@@H]2CC[C@]2(C)[C@@H]([C@H](C)CCC(=O)OC[C@H]4O[C@@H](n5cc(C)c(=O)[nH]c5=O)C[C@@H]4N=[N+]=[N-])CC[C@@H]32)C1 ; cells: CEM + CME-SS ; method: cytopathic effect / XTT ; value: 0.089 µM
Cc1cn([C@H]2C[C@H](N=[N+]=[N-])[C@@H](COP(=O)(OCCSC(=O)C(C)(C)C)OCCSC(=O)C(C)(C)C)O2)c(=O)[nH]c1=O ; strain: RF ; cells: MOLT-4/8 ; method: p24 ; value: 0.012 µM
C[C@H]1/C=C/[C@@]2(C)CC[C@@H](C(C)(C)O)[C@@H]2[C@@H](O)C[C@](C)(O)/C=C/C1 ; strain: 95BRSP007 R5X4 ; cells: Macrophage + Macrophages ; method: p24 ; value: 1.85 µM
Cc1cn([C@H]2C[C@H](N=[N+]=[N-])[C@@H](COC(=O)CCC(=O)OC3CN(c4ccccc4)C(=O)N(c4ccccc4)C3)O2)c(=O)[nH]c1=O ; cells: CEM + CME-SS ; method: cytopathic effect / XTT ; value: 0.016 µM
Cc1c(N)nc([C@H](CC(N)=O)NC[C@H](N)C(N)=O)nc1C(=O)N[C@H](C(=O)N[C@H](C)[C@@H](O)[C@H](C)C(=O)N[C@H](C(=O)NCCc1nc(-c2nc(C(=O)NCCC[S+](C)C)cs2)cs1)[C@@H](C)O)C(O[C@@H]1O[C@@H](CO)[C@@H](O)[C@H](O)[C@@H]1O[C@H]1O[C@H](CO)[C@@H](O)[C@H](OC(N)=O)[C@@H]1O)c1cnc[nH]1 ; strain: BaL ; cells: Macrophage + Monocytes/macrophages ; method: XTT / p24 ; value: >0.3 µg/mL
Cc1cn([C@H]2C[C@H](N=[N+]=[N-])[C@@H](COC(=O)C3CNC(=O)N3)O2)c(=O)[nH]c1=O ; cells: CEM + CME-SS ; method: cytopathic effect / XTT ; value: 0.0076 µM
Cc1cn([C@H]2CC[C@@H](CO)O2)c(=O)n(N)c1=O ; strain: BRU ; cells: CEM-C113 + CEM/C113 ; method: cytopathic effect / MTT ; value: >100 µM
Cc1cn([C@H]2C[C@H](N=[N+]=[N-])[C@@H](CO)O2)c(=O)[nH]c1=O ; cells: CEM.SS + MT-4 ; method: MTT ; value: 0.157 µg/mL
c1ccc(-c2cc(CN3CCCNCCNCCCNCC3)cc(CN3CCCNCCNCCCNCC3)c2)cc1 ; strain: 168.10 ; cells: SupT1 + Sup-T1 ; method: cytopathic effect / MTT ; value: 0.12 µg/mL
CC(=O)c1ccc(C)cc1NC(C(N)=O)c1c(Cl)cccc1Cl ; strain: IIIB ; changes: RT-Y181C ; cells: MAGI ; method: MTT ; value: >10 µM
Cc1cc(Br)cc(S(=O)(=O)c2cccc(N)c2C#N)c1 ; changes: RT-V106A Y181C ; cells: HeLa + HELA CD4+ ; method: β-galactosidase ; value: 0.49 µM
COC(=O)[C@H](C)NP(=O)(OC[C@H]1O[C@@H](n2cc(C)c(=O)[nH]c2=O)C[C@@H]1N=[N+]=[N-])Oc1ccc(Br)cc1 ; strain: IIIB ; cells: CEM + CEM TK- ; method: p24 ; value: <0.01 µM
CCCC[C@H](NC(=O)[C@@H](NC(=O)[C@H](Cc1cccc2ccccc12)CS(=O)(=O)C(C)(C)C)C(C)C)[C@@H](O)[C@H](O)[C@H](CCCC)NC(=O)[C@@H](NC(=O)[C@H](Cc1cccc2ccccc12)CS(=O)(=O)C(C)(C)C)C(C)C ; strain: D34 ; cells: PBLC ; method: p24 ; value: 0.075 µM
Cc1cn([C@H]2C[C@H](N=[N+]=[N-])[C@@H](COC(=O)C3CCCC3)O2)c(=O)[nH]c1=O ; cells: CEM + CME-SS ; method: cytopathic effect / XTT ; value: 0.04 µM
Cc1ccc(-c2ccc3c(c2)C=C(C(=O)Nc2ccc(C[N+](C)(C)C4CCOCC4)cc2)CCO3)cc1 ; strain: JR-FL ; cells: MAGI + MAGI-CCR5 ; method: β-galactosidase ; value: 0.002 µM
Cc1cn([C@H]2C[C@H](N=[N+]=[N-])[C@@H](CO)O2)c(=O)[nH]c1=O ; strain: D747 ; cells: Monocytes + Monocyte ; method: p24 / ELISA ; value: 0.0012 µg/mL
Cc1cn([C@H]2C[C@H](N=[N+]=[N-])[C@@H](COC(=O)C3CCC(=O)N3)O2)c(=O)[nH]c1=O ; cells: CEM + CME-SS ; method: cytopathic effect / XTT ; value: 0.018 µM
O=C1CCCN1CCCN1CC(=O)N2CC(N(CCOc3ccccc3)S(=O)(=O)c3cccc(F)c3)C[C@H]2C1=O ; strain: PLAI-JRFL PID2-27B ; cells: TZM-bl ; method: luciferase ; value: >30 µM
CC(=O)SCCOP(=O)(OCCSC(C)=O)OC[C@H]1O[C@@H](n2cc(C)c(=O)[nH]c2=O)C[C@@H]1N=[N+]=[N-] ; strain: LAV1-BRU ; cells: MOLT-4/8 ; method: p24 ; value: 0.038 µM
CC(C)[C@H](NC(=O)N(C)Cc1ccccn1)C(=O)N[C@@H](Cc1ccccc1)[C@@H](O)[C@H](O)[C@H](Cc1ccccc1)NC(=O)[C@@H](NC(=O)N(C)Cc1ccccn1)C(C)C ; strain: D34 ; cells: PBLC ; method: p24 ; value: 0.958 µM
CC(C)(C)NC(=O)[C@@H]1C[C@H](Cl)CN1C(=O)[C@@H](O)[C@H](Cc1ccccc1)NC(=O)[C@H](CC(N)=O)NC(=O)c1cnc2ccccc2n1 ; strain: IIIB ; cells: MOLT-4/HIV-1(IIIB) + MOLT-4 ; method: p24 ; value: <1.2 µM
O=C1NCCc2cc(Br)c(c(Br)c2)Oc2cc(cc(Br)c2O)CCNC(=O)/C(=N/O)Cc2cc(Br)c(c(Br)c2)Oc2cc(cc(Br)c2O)C/C1=N/O ; strain: NL4-3 ; cells: CEM-GXR ; method: GFP / reporter gene ; value: 1.2 µM
Cc1cc(S(N)(=O)=O)ccc1NC(=O)COc1ccc(Cl)cc1C(=O)c1cc(Cl)cc(C#N)c1 ; strain: NNRTI-resistant (RT Y188C) ; changes: RT-Y188C ; cells: MAGI ; method: β-galactosidase ; value: 0.00011 µM
CC1=C[C@H]([C@H](O)[C@H](C)[C@@H]2C[C@@H](O)[C@@]3(O)[C@H]4CC[C@@H]5C(C)(C)O[C@H]6CC(=O)O[C@]65C[C@]4(O)CC[C@@]23C)OC1=O ; strain: IIIB ; cells: MT-2 + MT-4 ; method: cytopathic effect / MTT ; value: 0.47 µg/mL
O=[N+]([O-])c1cc(CN2CCCNCCNCCCNCC2)cc(CN2CCCNCCNCCCNCC2)c1 ; strain: 168.10 ; cells: SupT1 + Sup-T1 ; method: cytopathic effect / MTT ; value: 0.02 µg/mL
CNc1ccc(Cl)cc1S(=O)(=O)c1ccccc1[N+](=O)[O-] ; strain: BaL ; cells: MAC ; method: XTT ; value: 0.3 µM
Cc1nc2ccccc2n1C1C[C@H]2CC[C@@H](C1)N2CC[C@H](NC(=O)C1CCOCC1)c1ccccc1 ; strain: BaL ; cells: HeLaP4 ; method: β-galactosidase ; value: 0.000216 µM
Cc1cc(O)cc(S(=O)(=O)c2cccc(N)c2C#N)c1 ; changes: RT-K103N ; cells: HeLa + HELA CD4+ ; method: β-galactosidase ; value: 10.5 µM
Nc1ccn([C@H]2CC[C@@H](CO)O2)c(=O)n1 ; strain: LAV1-BRU ; cells: MOLT-4/8 ; method: p24 ; value: 0.21 µM
C[N+]1(Cc2ccc(NC(=O)C3=Cc4cc(-c5ccccc5)ccc4CC3)cc2)CCCC1 ; strain: JR-FL ; cells: MAGI + MAGI-CCR5 ; method: β-galactosidase ; value: 1.1 µM
CC(C)(C)NC(=O)[C@@H]1C[C@H](Cl)CN1C(=O)[C@@H](O)[C@H](Cc1ccccc1)NC(=O)[C@H](CC(N)=O)NC(=O)c1noc2ccccc12 ; strain: IIIB ; cells: MOLT-4/HIV-1(IIIB) + MOLT-4 ; method: p24 ; value: <3.2 µM
C[N+]1(CCc2ccc(NC(=O)C3=Cc4cc(-c5ccccc5)ccc4CC3)cc2)CCCCC1 ; strain: JR-FL ; cells: MAGI + MAGI-CCR5 ; method: β-galactosidase ; value: 1.1 µM
Cc1nnc(C(=O)NC(C)(C)c2nc(C(=O)NCc3ccc(F)cc3)c(O)c(=O)n2C)o1 ; strain: NL4-3 ; cells: CEM-GXR ; method: GFP / reporter gene ; value: 0.011 µM
COC(=O)c1cc(CN2CCCNCCNCCCNCC2)ccc1CN1CCCNCCNCCCNCC1 ; strain: 168.10 ; cells: SupT1 + Sup-T1 ; method: cytopathic effect / MTT ; value: 1.2 µg/mL
CC(C)(C)S(=O)(=O)C[C@@H](Cc1cccc2ccccc12)C(=O)N[C@@H](CC(N)=O)C(=O)N[C@@H](Cc1ccccc1)[C@@H](O)[C@H](O)[C@H](Cc1ccccc1)NC(=O)[C@H](CC(N)=O)NC(=O)[C@H](Cc1cccc2ccccc12)CS(=O)(=O)C(C)(C)C ; strain: D34 ; cells: PBLC ; method: p24 ; value: 10 µM
Cc1cn([C@H]2C[C@H](N=[N+]=[N-])[C@@H](CO)O2)c(=O)[nH]c1=O ; strain: DV ; cells: Macrophage ; method: RT activity ; value: 0.0008 µM
CC(C)(C)S(=O)(=O)C[C@@H](Cc1cccc2ccccc12)C(=O)N[C@H](C(=O)N[C@@H](Cc1ccccc1)[C@@H](O)[C@H](O)[C@H](Cc1ccccc1)NC(=O)[C@@H](NC(=O)[C@H](Cc1cccc2ccccc12)CS(=O)(=O)C(C)(C)C)C1CCCCC1)C1CCCCC1 ; strain: D34 ; cells: PBLC ; method: p24 ; value: 0.06 µM
c1ncc(CN2CCCNCCNCCCNCC2)cc1CN1CCCNCCNCCCNCC1 ; strain: 168.10 ; cells: SupT1 + Sup-T1 ; method: cytopathic effect / MTT ; value: 0.24 µg/mL
C[N+](C)(Cc1ccc(NC(=O)C2=Cc3cc(-c4ccc(C(F)(F)F)cc4)ccc3OCC2)cc1)C1CCOCC1 ; strain: JR-FL ; cells: MAGI + MAGI-CCR5 ; method: β-galactosidase ; value: 0.0012 µM

Repeating the final 4 entries:

{"structure": "Cc1cn([C@H]2C[C@H](N=[N+]=[N-])[C@@H](CO)O2)c(=O)[nH]c1=O", "strain": "DV", "cells": "Macrophage", "method": "RT activity", "value": "0.0008 µM"}
{"structure": "CC(C)(C)S(=O)(=O)C[C@@H](Cc1cccc2ccccc12)C(=O)N[C@H](C(=O)N[C@@H](Cc1ccccc1)[C@@H](O)[C@H](O)[C@H](Cc1ccccc1)NC(=O)[C@@H](NC(=O)[C@H](Cc1cccc2ccccc12)CS(=O)(=O)C(C)(C)C)C1CCCCC1)C1CCCCC1", "strain": "D34", "cells": "PBLC", "method": "p24", "value": "0.06 µM"}
{"structure": "c1ncc(CN2CCCNCCNCCCNCC2)cc1CN1CCCNCCNCCCNCC1", "strain": "168.10", "cells": "SupT1 + Sup-T1", "method": "cytopathic effect / MTT", "value": "0.24 µg/mL"}
{"structure": "C[N+](C)(Cc1ccc(NC(=O)C2=Cc3cc(-c4ccc(C(F)(F)F)cc4)ccc3OCC2)cc1)C1CCOCC1", "strain": "JR-FL", "cells": "MAGI + MAGI-CCR5", "method": "β-galactosidase", "value": "0.0012 µM"}